PubChem BioAssay AID504761, Drosophila RNAi Screening Center | 2011

Test: 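Fly genes whose silencing reduces dengue virus type 2 infection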 (primary screen)
Cell system: D.Mel-2 cells from Drosophila
Reagent: long dsRNA against Drosophila genes
Challenge: infection with dengue virus type 2; dose and infection time not stated
Detection: 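Per well on two replicate plates, imaging gave the percent of cells positive for viral envelope protein, ranked by infection, and a nuclear count of cells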
Direction: infection score: higher = more virus-infected cells; cell count: higher = more cells in the well
Hit rule: 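Low infection ranks in the two replicates (chance level up to 0.065) followed by a retest with a 1.5-fold or larger significant decrease, p below 0.05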
Calls: active = confirmed: knock-down lowers infection; inactive = not picked or not confirmed
The deposit covers about 22,000 reagents; below is an unselected part of those with a known target gene and a result. Over the whole deposit, 116 (0.52%) were called active. 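Calls depend on retest data that are not deposited; infection was ranked per plate without normalising between plates; the unit of the infection score is not given.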 The raw values are shown without normalisation. Unmarked entries are inactive. Further read-outs or replicates are left out here. Not given: the amount of reagent, the time to read-out.

What is on record for Spf45 [DRSC03826]?
infection score, replicate 1: 11.3; cell count, replicate 1: 6679

How did the screen score Cox17 (Cytochrome c oxidase copper chaperone COX17) [DRSC20145]?
infection score, replicate 1: 0.93; cell count, replicate 1: 6557

With CG2750 [DRSC19867], how do the results read?
infection score, replicate 1: 6.56; cell count, replicate 1: 6812

What did the screen give for CG15531 [DRSC15068]?
infection score, replicate 1: 7.25; cell count, replicate 1: 3586

For CG15531 [DRSC24882], what was measured?
infection score, replicate 1: 3.99; cell count, replicate 1: 2759

Which result is listed for CG32679 [DRSC17644]?
infection score, replicate 1: 7.62; cell count, replicate 1: 4395

How did the screen score Muc55B (Mucin 55B) [DRSC21440]?
infection score, replicate 1: 8.27; cell count, replicate 1: 5867

For Muc55B (Mucin 55B) [DRSC27913], how do the results read?
infection score, replicate 1: 28.1; cell count, replicate 1: 6654

With Patronin [DRSC06756], what does the deposit list?
infection score, replicate 1: 12.8; cell count, replicate 1: 5800

What did the screen give for Patronin [DRSC06757]?
infection score, replicate 1: 14.7; cell count, replicate 1: 5509

For Patronin [DRSC06994], how do the results read?
infection score, replicate 1: 4.59; cell count, replicate 1: 5560

2 of these entries in another layout:
{"gene":"CG2750","dsRNA":"DRSC19867","infection score, replicate 1":6.56,"cell count, replicate 1":6812}
{"gene":"CG15531","dsRNA":"DRSC15068","infection score, replicate 1":7.25,"cell count, replicate 1":3586}

More entries:
For CG31650 [DRSC03140], how do the results read?
infection score, replicate 1: 1.22; cell count, replicate 1: 5736

With CG31650 [DRSC28972], what was measured?
infection score, replicate 1: 0.54; cell count, replicate 1: 369

For Scamp [DRSC20286], how do the results read?
infection score, replicate 1: 4.8; cell count, replicate 1: 6355

Which result is listed for Scamp [DRSC29752]?
infection score, replicate 1: 2.39; cell count, replicate 1: 6524

With PXo (P[[i]]-sensitive XPR1 orthologue) [DRSC09734], what was measured?
infection score, replicate 1: 6.74; cell count, replicate 1: 2255

For CG7386 [DRSC10832], how do the results read?
infection score, replicate 1: 0.95; cell count, replicate 1: 6441

How did the screen score CG7386 [DRSC29368]?
infection score, replicate 1: 20.5; cell count, replicate 1: 6319

With Tpc2 [DRSC04322], what was measured?
infection score, replicate 1: 14.4; cell count, replicate 1: 6560

For CG5281 [DRSC15761], how do the results read?
infection score, replicate 1: 2.44; cell count, replicate 1: 6109

With Pgm2b (Phosphoglucomutase 2b) [DRSC05978], what does the deposit list?
infection score, replicate 1: 6.62; cell count, replicate 1: 2358

How did the screen score Pgm2b (Phosphoglucomutase 2b) [DRSC26452]?
infection score, replicate 1: 4.78; cell count, replicate 1: 7030
